Results of unrelated studies side by side (data: NIAID ChemDB).

Shared fields: growth or infection tests; species: Mycobacterium tuberculosis

Percent inhibition refers to the dose given; in toxicity tests it is the harm to the cells.

compound | tested at | cells | strain or isolate | method | endpoint | result
Cc1nn(-c2ccccc2)c2c1C(c1ccc(Cl)cc1)c1c(nc(=O)[nH]c1N)O2 | 62.5 µg/mL |  | H37Rv |  | inhibition | 44%
C(=C\c1ccccc1)/CNc1ccc(Cn2ccnc2)cc1 |  |  | 6425 |  | MIC | 2 µg/mL
Cc1nn(-c2ccccc2)c2c1C(c1ccccc1)c1c(nc(=S)[nH]c1N)O2 | 62.5 µg/mL |  | H37Rv |  | inhibition | 31%
Cc1ccc(NC(=O)c2ncccc2S)cc1 |  |  | CNCTC MY 331/8 |  | MIC | 16 µM
C=CCn1c(-c2ccc([N+](=O)[O-])cc2)cs/c1=N\C(P(=O)(O)O)P(=O)(O)O |  |  | H37Rv | resazurin | MIC bound | >6.25 µg/mL
C[C@H]1COC2(CCN(C3=NC(=O)c4cc(C(F)(F)F)cc([N+](=O)[O-])c4S3(=O)=O)CC2)O1 |  |  | H37Rv | resazurin / fluorescence | MIC | 1.46 µg/mL
Cc1nn(-c2ccccc2)c2c1C(c1cccc(Cl)c1)c1c(nc(=S)[nH]c1N)O2 | 62.5 µg/mL |  | H37Rv |  | inhibition | 45%
Cc1cc2c(cc1C)NC1=C(N2)OC(c2c3ccccc3cc3ccccc23)C1=O |  |  | H37Rv | BACTEC | MIC bound | >12.5 µg/mL
CCc1nc2ccc(Cl)cn2c1C(=O)NCc1ccc(N2CCC(c3ccc(OC(F)(F)F)cc3)CC2)cc1 |  |  | H37Rv | low oxygen | MIC | 1.3 µM
O=C(CN1CCN(c2cc3c(cc2F)c(=O)c(C(=O)O)cn3C2CC2)CC1)c1ccccc1 | 3.68 µg/mL | VERO | H37Rv |  | inhibition | 90%
O=C1C2=C(c3ccccc31)C(c1ccccc1)NC(=S)N2 |  |  | H37Rv | BACTEC | MIC bound | >12.5 µg/mL
Cc1ccc(-c2csc(NC(c3cccc(Cl)c3)C3CCCCC3=O)n2)cc1 |  |  | H37Rv | broth dilution / agar / visual reading | MIC | 50 µg/mL
Clc1ccc(/C(Cn2ccnc2)=N/OCc2ccc(-c3ccccc3)cc2)c(Cl)c1 |  |  | CIP103471 |  | MIC | 8 µg/mL
C[CH2][Sn]([I])([I])[CH2]C.c1cnc2c(c1)ccc1cccnc12 | 12.5 µg/mL |  | H37Rv | BACTEC | inhibition | 94%
NCC[C@H](O)C(=O)N[C@@H]1C[C@H](N)[C@@H](O[C@H]2O[C@H](CN)[C@@H](O)[C@H](O)[C@H]2O)[C@H](O)[C@H]1O[C@H]1O[C@H](CO)[C@@H](O)[C@H](N)[C@H]1O |  |  |  |  | MIC | 2 µg/mL
Cc1ccnc(C(N)=Nc2ccc(-c3ccc(-c4ccc(N=C(N)c5cc(C)ccn5)cc4C)o3)c(C)c2)c1 |  |  |  |  | MIC | 2 µg/mL
COc1ccc(-c2csc(NC(c3ccccc3)C3CCCCC3=O)n2)cc1 |  |  | H37Rv | broth dilution / agar / visual reading | MIC | 50 µg/mL
Clc1ccc(/C(Cn2ccnc2)=N\OC/C=C/c2ccccc2)cc1 |  |  | CIP103471 |  | MIC | 8 µg/mL
N[C@@H]1CONC1=O |  |  |  |  | MIC | 10–20 µg/mL
O=c1oc(-c2ccncc2)nn1CN1CCOCC1 |  |  | H37Rv |  | MIC | 2.5 µg/mL
COc1ccc(C2C(C#N)=C(N)Oc3c2c(C)nn3-c2ccccc2)cc1 | 62.5 µg/mL |  | H37Rv |  | inhibition | 5%
O=C(/C=C/c1ccccc1)n1nnc2cc(Cl)c(Cl)cc21 |  |  | H37Rv | BACTEC | MIC bound | >12.5 µg/mL
Cc1nn(-c2ccccc2)c2c1C(c1ccccc1Cl)C(C#N)=C(N)O2 | 62.5 µg/mL |  | H37Rv |  | inhibition | 69%
CN1CCN(Cn2nc(-c3ccncc3)oc2=S)CC1 |  |  | H37Rv |  | MIC | 40 µg/mL
Cc1nc(C(N)=O)c(N)n1N |  |  | H37Rv | BACTEC | MIC bound | >12.5 µg/mL
COc1cccc(-c2oc3c(ccc4occc43)c(=O)c2OC)c1 |  |  | H37Ra |  | MIC | 200 µg/mL
NNC(=O)CCC1(c2ccccc2)CCCC/C1=N\O |  |  | H37Rv | BACTEC | MIC bound | >12.5 µg/mL
CNn1cc(C(=O)O)c(=O)c2cc(F)c(N3CCN(C)CC3)cc21 |  |  |  |  | MIC90 | >4 µg/mL
COc1ccc(-n2c(S[Si](C)(C)C)nc3ccccc3c2=O)cc1 |  |  | H37Rv |  | MIC | ≤10 µg/mL
S=c1oc(-c2ccncc2)nn1CN1CCCCC1 |  |  | H37Rv |  | MIC | 40 µg/mL
CCc1nc2ccc(Cl)cn2c1C(=O)NCc1ccc(S(F)(F)(F)(F)F)cc1 |  |  | H37Rv | low oxygen | MIC | 0.88 µM
NC(=O)c1cnccn1 |  |  |  |  | MIC | 5–10 µg/mL
O=c1cnn([C@@H]2O[C@H](CO)[C@@H](O)[C@H]2O)c(=S)[nH]1 | 12.5 µg/mL |  | H37Rv | BACTEC | inhibition | 7%
Clc1ccc(/C(Cn2ccnc2)=N/OCc2ccccc2)cc1 |  |  | CIP103471 |  | MIC | 0.5 µg/mL
O=C(NCc1ccc([N+](=O)[O-])cc1)c1ncccc1O |  |  | CNCTC MY 331/8 |  | MIC | 250 µM
CC(=O)N1CCN(Cn2nc(-c3ccncc3)oc2=S)CC1 |  |  | H37Rv |  | MIC | 20 µg/mL
Cc1nn(-c2ccccc2)c2c1C(c1ccc(F)cc1)c1c(nc(=O)[nH]c1N)O2 | 62.5 µg/mL |  | H37Rv |  | inhibition | 93%
COc1ccc(-c2coc3c(OC)c(OCC=C(C)C)ccc3c2=O)cc1 |  |  | H37Ra |  | MIC | 100 µg/mL
CCn1cc(C(=O)O)c(=O)c2cc(F)c(N3CCN(C/C(=N/O)c4ccc(C)cc4)CC3)cc21 |  |  | H37Rv |  | MIC | >6.25 µg/mL
CCOC(=O)c1cc(C(=O)c2ccccc2[N+](=O)[O-])n2c1c(Br)cc1ccccc12 |  |  | H37Rv | resazurin | MIC | 1 µg/mL
O=C(Nc1ccc(Cl)cc1)c1ncccc1O |  |  | CNCTC MY 331/8 |  | MIC | 62.5 µM
O=C(CCCC(=O)N/N=C/c1ccc(O)cc1O)N/N=C/c1ccc(O)cc1O | 12.5 µg/mL |  | H37Rv | BACTEC | inhibition | -29%
O=C(O)c1cn(C2CC2)c2cc(N3CCN(C/C(=N/O)c4ccccc4)CC3)c(F)cc2c1=O |  | VERO | H37Rv |  | EC50 | <6.25 µg/mL
O=C(NCc1ccc(F)cc1)c1ncccc1O |  |  | CNCTC MY 331/8 |  | MIC | 500 µM
CC(O)(c1ccncc1)c1cc2ccccc2[nH]1 |  |  | H37Rv |  | MIC bound | >6.25 µg/mL
CCNCC1CCN(c2c(F)cc3c(=O)c(C(=O)O)cn(CC)c3c2F)C1 |  |  |  |  | MIC90 | >4 µg/mL
C(=C\c1ccccc1)/CNc1ccccc1Cn1ccnc1 |  |  | 103471 |  | MIC | >64 µg/mL
Clc1ccc(/C(Cn2ccnc2)=N\OCc2ccc(-c3ccccc3)cc2)cc1 |  |  | CIP103471 |  | MIC | 8 µg/mL
CCCCCCCCCC1C/C(=N\OCc2ccccc2)c2c(O)cc(O)cc2O1 |  |  | H37Rv | broth dilution | MIC | 100 µg/mL
COc1ccc(C(Nc2nc(-c3ccc(C)cc3)cs2)C2CCCCC2=O)cc1 |  |  | H37Rv | broth dilution / agar / visual reading | MIC | 50 µg/mL
Cc1ccc(CNC(=O)c2ncccc2S)cc1 |  |  | CNCTC MY 331/8 |  | MIC | 8 µM
COc1ccc(C2=C/C(=C3\C(=O)C=C(C)OC3=O)SS2)cc1 |  |  | H37Rv | BACTEC | MIC bound | >12.5 µg/mL
CCn1cc(C(=O)O)c(=O)c2cc(F)c(N3CCN(C/C(=N/O)c4ccc(OC)cc4)CC3)cc21 |  |  | H37Rv |  | EC50 | >6.25 µg/mL
CCCCCCCCO[C@@H]1O[C@H]([C@@H](COC)O[C@H]2O[C@H](COC(=O)c3ccccc3)[C@@H](OC(=O)c3ccccc3)[C@@H]2OC(=O)c2ccccc2)[C@H](OC)[C@H]1OC |  |  | H37Ra |  | MIC | >128 µg/mL
COc1ccccc1-n1c(S[Si](C)(C)C)nc2c(Br)cccc2c1=O |  |  | H37Rv |  | MIC | ≤40 µg/mL
Cc1ccc2c(c1)OC1c3ccc(O)cc3OCC21 |  |  | H37Ra |  | MIC | 100 µg/mL
Clc1ccc(C(c2ccccc2)c2ccc(OCCN3CCCC3)c3ccccc23)cc1 |  |  | H37Rv | resazurin | MIC | >12.5 µg/mL
CN1CCN(c2cc3c(cc2F)c(=O)c(C(=O)O)cn3-c2ccc(F)cc2)CC1 |  |  |  |  | MIC90 | >4 µg/mL
Nc1nc(N)c(N=Nc2ccc(S(=O)(=O)Nc3ccccn3)cc2)c(=O)[nH]1 |  |  | H37Rv | BACTEC | MIC | ≥12.5 µg/mL
Cc1ccc(NC(=O)c2ccccc2O)cc1 |  |  | CNCTC MY 331/8 |  | MIC | 62.5 µM
CO[C@H]1/C=C/O[C@@]2(C)Oc3c(C)c(O)c4c(O)c(c(/C=N/N5CCN(C6CCCC6)CC5)c(O)c4c3C2=O)NC(=O)/C(C)=C\C=C\[C@H](C)[C@H](O)[C@@H](C)[C@@H](O)[C@@H](C)[C@H](OC(C)=O)[C@@H]1C |  |  | 13268 |  | MIC | 0.06 µg/mL
CC12CCC(CC1)C(C)(C)O2 | 12.5 µg/mL |  | H37Rv | BACTEC | inhibition | -1%
Cc1nn(-c2ccccc2)c2c1C(c1ccc(F)cc1)C(C#N)=C(N)O2 | 62.5 µg/mL |  | H37Rv |  | inhibition | 42%
CCn1cc(C(=O)O)c(=O)c2cc(F)c(N3CCN(CC(=O)c4ccc(Br)cc4)CC3)nc21 |  |  | H37Rv |  | EC50 | >6.25 µg/mL
CO[C@H]1/C=C/O[C@@]2(C)Oc3c(C)c(O)c4c(O)c(c(/C=N/N=C/N5CCCCC5)c(O)c4c3C2=O)NC(=O)/C(C)=C\C=C\[C@H](C)[C@H](O)[C@@H](C)[C@@H](O)[C@@H](C)[C@H](OC(C)=O)[C@@H]1C |  |  | isolates 3 |  | MIC | 3.12 µg/mL
Cc1cn2c(C(=O)NCc3ccc(C(F)(F)F)cc3)c(C)nc2s1 |  |  | H37Rv | low oxygen | MIC | 5.6 µM
C[C@@H]1CN(c2c(F)c(N)c3c(=O)c(C(=O)O)cn(C4CC4)c3c2F)C[C@H](C)N1 |  |  | 18 strains |  | MIC50 | 0.25 µg/mL
CCCCCC(Cn1ccnc1)c1ccccc1Br |  |  | H37Rv | resazurin | MIC bound | <6.25 µg/mL
O=C(CN1CCN(c2cc3c(cc2F)c(=O)c(C(=O)O)cn3C2CC2)CC1)c1ccc(Br)cc1 |  | VERO | H37Rv |  | EC50 | <6.25 µg/mL
CN(C)C(=O)Nc1c([N+](=O)[O-])cc(C(F)(F)F)cc1[N+](=O)[O-] |  | VERO | H37Rv |  | MIC | 6.25 µg/mL
O=C(Nc1ccc(F)cc1)c1ncccc1S |  |  | CNCTC MY 331/8 |  | MIC | 16 µM
COC(=O)[C@@H]1C=CC(O[C@@H]2O[C@H](COC(C)=O)[C@@H](OC(C)=O)[C@H](OC(C)=O)[C@H]2OC(C)=O)n2c(=O)n(-c3ccccc3)c(=O)n21 | 6.25 µg/mL |  | H37Rv | resazurin | inhibition | -3%
C=CCOc1cc(O)cc(O)c1C(=O)C(C)CC |  |  | H37Rv | broth dilution | MIC | 100 µg/mL
Cc1cc(C2(c3ccc(O)c(C)c3)OS(=O)(=O)c3ccccc32)ccc1O |  |  | H37Rv | BACTEC | MIC bound | >12.5 µg/mL
C[C@H]1COc2c(N3CCN(C)CC3)c(F)cc3c(=O)c(C(=O)O)cn1c23 |  |  |  |  | MIC | 0.25–0.5 µg/mL
CC(=O)Oc1ccc(C2COc3cc(OC(C)=O)c(OC(C)=O)cc3C2)cc1 |  |  | H37Rv | BACTEC | MIC bound | >12.5 µg/mL
CN1CCN(Cc2ccc(NC/C=C/c3ccccc3)cc2)CC1 |  |  | B905 |  | MIC | >64 µg/mL
CN(C)[C@H]1C(=O)C(C(N)=O)=C(O)[C@@]2(O)C(=O)C3C(=O)c4c(O)ccc(Cl)c4[C@@](C)(O)[C@@H]3C[C@H]12 |  |  | H37Rv | BACTEC | MIC bound | ≤12.5 µg/mL
COc1ccc(-c2csc(NC(c3ccc(Cl)cc3)C3CCCCC3=O)n2)cc1 |  |  | H37Rv | broth dilution / agar / visual reading | MIC | 50 µg/mL
C(/C=C/c1ccccc1)=Nc1ccc(Cn2ccnc2)cc1 |  |  | 6431 |  | MIC | 32 µg/mL
CC1(C)Oc2ccc3ccc(=O)oc3c2[C@@H](OC(=O)C23CCC(C)(C(=O)O2)C3(C)C)[C@H]1OC(=O)C12CCC(C)(C(=O)O1)C2(C)C | 12.5 µg/mL |  | H37Rv | BACTEC | inhibition | 60%
O=C(Nc1ccc(C(F)(F)F)cc1)c1ccccc1O |  |  | CNCTC MY 331/8 |  | MIC | 8 µM

The last 9 rows once more:

compound,tested at,cells,strain or isolate,method,endpoint,result
Cc1cc(C2(c3ccc(O)c(C)c3)OS(=O)(=O)c3ccccc32)ccc1O,,,H37Rv,BACTEC,MIC bound,>12.5 µg/mL
C[C@H]1COc2c(N3CCN(C)CC3)c(F)cc3c(=O)c(C(=O)O)cn1c23,,,,,MIC,0.25–0.5 µg/mL
CC(=O)Oc1ccc(C2COc3cc(OC(C)=O)c(OC(C)=O)cc3C2)cc1,,,H37Rv,BACTEC,MIC bound,>12.5 µg/mL
CN1CCN(Cc2ccc(NC/C=C/c3ccccc3)cc2)CC1,,,B905,,MIC,>64 µg/mL
CN(C)[C@H]1C(=O)C(C(N)=O)=C(O)[C@@]2(O)C(=O)C3C(=O)c4c(O)ccc(Cl)c4[C@@](C)(O)[C@@H]3C[C@H]12,,,H37Rv,BACTEC,MIC bound,≤12.5 µg/mL
COc1ccc(-c2csc(NC(c3ccc(Cl)cc3)C3CCCCC3=O)n2)cc1,,,H37Rv,broth dilution / agar / visual reading,MIC,50 µg/mL
C(/C=C/c1ccccc1)=Nc1ccc(Cn2ccnc2)cc1,,,6431,,MIC,32 µg/mL
CC1(C)Oc2ccc3ccc(=O)oc3c2[C@@H](OC(=O)C23CCC(C)(C(=O)O2)C3(C)C)[C@H]1OC(=O)C12CCC(C)(C(=O)O1)C2(C)C,12.5 µg/mL,,H37Rv,BACTEC,inhibition,60%
O=C(Nc1ccc(C(F)(F)F)cc1)c1ccccc1O,,,CNCTC MY 331/8,,MIC,8 µM

An empty or dashed field is not shown. A number after MIC or MFC names an inhibition level or a share of isolates. Conditions beyond the fields shown may differ between rows. MIC bound: limit read from a one-dose screen. a–b is a range or a potency band. ECn: concentration that inhibits the pathogen or its effect by n%.